Test results: patent publication US10703743B2 (priority 2010, dated 2020)

Tests used:
gp120-CD4 interaction = gp120-CD4 interaction (Human immunodeficiency virus type 1 group M subtype B, UniProt P03375); conditions: read-out: CD4 (activity)
MT-2 = MT-2 activity; assay type: cell-based; conditions: read-out: MT-2 (activity)

COc1ccc(-c2ccc(CNC(=O)COCCOCCOCCOCCOCCOCCn3cc(COCCOCCOCCOCCNc4ccc([N+](=O)[O-])cc4[N+](=O)[O-])nn3)o2)c2[nH]cc(C(=O)C(=O)N3CCN(C(=O)c4ccccc4)CC3)c12 [C5-furan]
IC50 (gp120-CD4 interaction): 290 nM | IC50 (MT-2): 10 nM
